For this assay, the system named is JEV strain AT31.
[1] abbreviates: Primary screening of 1034 compounds in the natural extracts library.

Where two headings read alike, the source gives them in different places.

For the molecule `CC(C)=CCCc1ccoc1` [Perillen], the “Inhibition (%)” value under setting [1] was found to be 4.067%.

Regarding `COc1cc2c(=O)c(-c3ccc(O)cc3)coc2cc1O[C@@H]1O[C@H](CO)[C@@H](O)[C@H](O)[C@H]1O` [Glycitin], under setting [1], the “Inhibition (%)” value amounted to 8.88%.

As for alpha.-Terpineol, the “Inhibition (%)” value under setting [1] came out at 5.562%.

Regarding `C[C@@]12C[C@@H](c3ccoc3)OC(=O)[C@@H]1CC[C@]1(C)[C@H]2[C@@H]2C=C[C@@]1(O)C(=O)O2` [Columbin], the “Inhibition (%)” value under setting [1] is -4.436%.

Turning to `COc1cc(C[C@H](C)[C@H](C)Cc2ccc3c(c2)OCO3)ccc1O` [Anwuligan], under setting [1], the “Inhibition (%)” value is on record as -89.2323%.

On to `COc1cc(C=O)cc(OC)c1O`, for which the “Inhibition (%)” value under setting [1] was -7.027%.

Turning to `C[C@H]1CC[C@H]2[C@H](C)[C@@H]3CC[C@@H]4[C@@H](C[C@H]5[C@H]4C[C@@H](O)[C@H]4C[C@@H](O)CC[C@@]45C)[C@@H]3CN2C1` [Hupehenine], the “Inhibition (%)” value under setting [1] was 5.431%.

On to `CC(=O)O[C@H]1[C@H]2[C@@H](OC(=O)Cc3ccccc3)[C@@H](C)C[C@]2(OC(C)=O)C(=O)/C(C)=C/[C@@H]2[C@H](CC[C@@]13CO3)C2(C)C` [Euphorbiasteroid], for which the “Inhibition (%)” value under setting [1] was 6.592%.

For the molecule `C=C1C[C@]2(O)O[C@@]3(CC2=C(C)C)[C@@H](C)CC[C@@H]13` [isourecumenol], the “Inhibition (%)” value under setting [1] is listed as 3.754%.

On to `COc1ccc([C@H]2OC[C@H]3[C@@H]2CO[C@@H]3c2cc(OC)c(OC)c(OC)c2)cc1OC` [Magnolin], for which, under setting [1], the “Inhibition (%)” value was -2.996%.

Turning to `OCC1(O)COc2cc(O)ccc2-c2cc(O)c(O)cc2C1` (stereo not shown) [Protosappanin B], the “Inhibition (%)” value under setting [1] was 20.8717%.

Regarding `CC[C@H]1CN2CCc3cc(OC)c(OC)cc3[C@@H]2C[C@@H]1C[C@H]1NCCc2cc(O)c(OC)cc21.Cl` [Cephaeline hydrochloride], under setting [1], the “Inhibition (%)” value is 11.3914%.

`COc1cc([C@@H]2c3cc4c(cc3[C@@H](O)[C@H]3COC(=O)[C@H]23)OCO4)cc(OC)c1O` [4'-Demethylepipodophyllotoxin]: the “Inhibition (%)” value under setting [1] is 3.967%.

With `O=c1ccc2cc3ccoc3c(O)c2o1` [Xanthotol], the “Inhibition (%)” value under setting [1] came to 2.061%.

As to Santalol, under setting [1], the “Inhibition (%)” value is recorded as 28.5828%.

With `Nc1nc(=O)[nH]c2c1ncn2[C@@H]1O[C@H](CO)[C@@H](O)[C@H]1O` [Crotonoside], under setting [1], the “Inhibition (%)” value is -2.093%.

Regarding `O=C(/C=C/c1ccc(O)c(O)c1)OCCc1ccccc1`, under setting [1], the “Inhibition (%)” value is recorded as 10.052%.

Consider `C=C1[C@@H]2CC[C@H]3[C@]4(C)C[C@H](O[C@@H]5O[C@H](CO)[C@@H](OS(=O)(=O)O)[C@H](OS(=O)(=O)O)[C@H]5OC(=O)CC(C)C)CC(C(=O)O)(C(=O)O)[C@H]4CC[C@]3(C2)[C@H]1O` [Carboxyatractyloside], for which, under setting [1], the “Inhibition (%)” value is recorded as -15.3295%.

Liensinine perchlorate: under “primary screening of 1034 compounds in the natural extracts library, red numbers = obvious cytotoxicity, blue numbers = insoluble in DMSO (colours not visible)”, the “Inhibition (%)” value is given as 99.1037%.

Consider brusatol, for which the “Inhibition (%)” value came to 24.3348%.

For `CN(C)c1ccc(N)cc1` [N,N-Dimethyl-1,4-phenylenediamine], the “Inhibition (%)” value under setting [1] is -236.384%.

With `CCCCCCCCCCCCCCCC(=O)NCc1ccccc1` [Hexadecanamide, N-benzyl-], under setting [1], the “Inhibition (%)” value turned out to be 3.903%.

With `Cc1nc(C)c(C)nc1C.Cl` [Ligustrazine Hydrochloride], the “Inhibition (%)” value under setting [1] is reported as 20.4054%.

`COc1cccc2c1cc([N+](=O)[O-])c1c(C(=O)O)cc3c(c12)OCO3` [Aristolochic Acid A]: under setting [1], the “Inhibition (%)” value is 8.4053%.

In the case of `COc1cc([C@H]2OC[C@@H]3[C@@H]2CO[C@H]3c2cc(OC)c(O[C@@H]3O[C@H](CO)[C@@H](O)[C@H](O)[C@H]3O)c(OC)c2)cc(OC)c1O[C@@H]1O[C@H](CO)[C@@H](O)[C@H](O)[C@H]1O` [Eleutheroside E], the “Inhibition (%)” value under setting [1] worked out at 3.332%.

Turning to `Cc1c(O)c(C)c2c(c1O)C(=O)[C@H](Cc1ccc3c(c1)OCO3)CO2` [Methylophiopogonanone A], the “Inhibition (%)” value under setting [1] is listed as -14.5068%.

Take `COc1ccc(-c2cc(=O)c3c(O)cc(O[C@@H]4O[C@H](CO[C@@H]5O[C@@H](C)[C@H](O)[C@@H](O)[C@H]5O)[C@@H](O)[C@H](O)[C@H]4O)cc3o2)cc1` [Buddleoside]: the “Inhibition (%)” value under setting [1] is listed as 3.512%.

With `COc1ccc(-c2cc(=O)c3c(OC)cc(OC)c(OC)c3o2)cc1OC` [Isosinensetin], the “Inhibition (%)” value under setting [1] is -6.089%.
